# Assay: Teicoplanin concentration in peritoneal dialysis effluent (PDE) by HPLC
# Type: in vivo, humans
# Conditions: ROC analysis, 36 PDAP patients; Youden index 0.9026
# Description: According to the patient’s PD plan, teicoplanin for injection was evenly distributed into each bag of PD fluid before the patient’s PD procedure to ensure that each bag of dialysis fluid entering the peritoneal cavity contained teicoplanin. […] The number of dialysis times per day is determined by the peritoneal function of each peritoneal dialysis patient.
# All patients received peritoneal dialysate and serum samples. […] Serum samples were collected on the 4th day prior to drug administration. Blood samples were centrifuged at 3,000 rpm for 10 minutes. The upper serum layer was then transferred into labeled EP tubes and stored at −80°C. Peritoneal fluid samples were collected daily after the PD procedure. The peritoneal fluid bag was disinfected with iodine, and peritoneal effluent was withdrawn using a sterile syringe and stored at −80°C.
# An Agilent Zorbax SB-C18 column (4.6 × 250 mm, 5 μm) was used. Methyl p-hydroxybenzoate served as the internal standard. The column temperature was kept at 35°C. The mobile phase comprised acetonitrile - 0.01 mol/L potassium dihydrogen phosphate (26:74, v/v, pH = 2.8 adjusted by phosphoric acid). A flow rate of 1 mL/min was set, with an injection volume of 40 μL. UV detection was conducted at 215 nm, while the column temperature remained at 40°C. […]
substance,measurement,value
teicoplanin,ROC cutoff value of 5th day PDE teicoplanin concentration for curative outcome,15.138 mg/L

# — paper PMC11416981 (Frontiers in Pharmacology, 2024)
